Reference: ChEMBL document CHEMBL3612042 (J Med Chem, 2015)

Target: T1, Biotin--[acetyl-CoA-carboxylase] ligase (Mycobacterium tuberculosis (strain ATCC 25618 / H37Rv)) (UniProt I6YFP0)
T1 sequence (whole entry): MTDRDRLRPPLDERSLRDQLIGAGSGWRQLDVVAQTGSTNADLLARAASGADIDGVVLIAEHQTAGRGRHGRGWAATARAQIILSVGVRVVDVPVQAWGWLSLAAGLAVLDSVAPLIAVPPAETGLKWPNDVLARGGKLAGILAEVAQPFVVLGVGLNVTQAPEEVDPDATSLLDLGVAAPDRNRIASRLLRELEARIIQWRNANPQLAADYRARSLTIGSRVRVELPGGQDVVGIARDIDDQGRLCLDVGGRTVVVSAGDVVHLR

Q: With `Nc1ncnc2c1ncn2COCCNS(=O)(=O)NC(=O)CCCC[C@@H]1SC[C@@H]2NC(=O)N[C@@H]21` as the molecule, how does the ΔTm read?
A: Its ΔTm is 14.7 °C.
